PSTVd stem 3 mutant pool in Nicotiana benthamiana

Reference: Wu et al. 2024, doi:10.1371/journal.ppat.1012142.

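A pool of all variants was put on leaves of three Nicotiana benthamiana plants. Samples came from the inoculated region at 5 days, the leaf margin at 10 and upper systemic leaves at 12.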

Region: stem 3 of PSTVd (intermediate strain), upper and lower strand joined, each 5' to 3', the first 8 letters being the upper strand. Wild type: GUGGUUCCGGAACCGC. Varied positions (N): GUGGUUCCGNANNCNN.

Values are reads per thousand in the sample; higher means more abundant, 0 means not found.
Each site shows the three plants.
"Pool" is the share in the plasmid pool used as inoculum, on the same scale.
The inoculated region was read from the minus strand, the other sites from the plus strand.
With 27,691-54,225 reads a sample, very low values are single reads.
Sequences that differ at fixed positions probably stem from PCR or sequencing errors, and defective variants can be carried along by functional ones.
For reference, wild type rose from 17.3 per thousand in the pool to 330, 345, 235 (inoculated region), 794, 766, 816 (leaf margin) and 830, 792, 869 (systemic leaves).

sequence	pool	inoculated region	leaf margin	systemic leaves
GUGGUUCCGGAUGCCU	0.785	0.320 / 0.431 / 0.189	0 / 0.0636 / 0.0361	0 / 0 / 0
GUGGUUCCGGAUGCGA	2.39	0.773 / 0.884 / 0.865	0 / 0 / 0.0722	0.0373 / 0 / 0
GUGGUUCCGGAUGCGC	1.40	0.293 / 0.690 / 0.594	0 / 0.0318 / 0	0.0373 / 0 / 0
GUGGUUCCGGAUGCGG	2.26	1.09 / 1.08 / 0.919	0.538 / 0 / 0.0361	0.0186 / 0 / 0
GUGGUUCCGGAUGCGU	0.877	0.426 / 0.496 / 0.351	0 / 0 / 0	0 / 0 / 0
GUGGUUCCGGAUGCUA	0.816	0.293 / 0.410 / 0.189	0.0567 / 0 / 0	0 / 0 / 0
GUGGUUCCGGAUGCUC	0.846	0.480 / 0.280 / 0.189	0 / 0 / 0	0 / 0 / 0
GUGGUUCCGGAUGCUG	0.939	0.373 / 0.345 / 0.351	0 / 0.0318 / 0	0.168 / 0 / 0
GUGGUUCCGGAUGCUU	0.800	0.506 / 0.280 / 0.324	0 / 0 / 0	0 / 0 / 0
GUGGUUCCGGAUUCAA	1.08	0.933 / 1.21 / 1.73	0 / 0 / 0	0.0186 / 0 / 0
GUGGUUCCGGAUUCAC	0.908	0.720 / 0.690 / 1.13	0 / 0 / 0	0 / 0 / 0
GUGGUUCCGGAUUCAG	0.862	0.880 / 0.712 / 0.784	0.0283 / 0.0318 / 0	0 / 0 / 0
GUGGUUCCGGAUUCAU	1.00	0.533 / 0.625 / 0.838	1.33 / 1.18 / 0.433	1.42 / 1.22 / 0.608
GUGGUUCCGGAUUCCA	0.908	0.267 / 0.367 / 0.270	0.0283 / 0 / 0	0 / 0 / 0
GUGGUUCCGGAUUCCC	1.09	0.267 / 0.302 / 0.432	0 / 0 / 0	0 / 0 / 0
GUGGUUCCGGAUUCCG	0.985	0.426 / 0.367 / 0.270	0 / 0 / 0.0361	0 / 0 / 0
GUGGUUCCGGAUUCCU	1.57	1.07 / 1.49 / 1.27	0 / 0.0636 / 0.0722	0.0186 / 0 / 0
GUGGUUCCGGAUUCGA	0.877	0.293 / 0.410 / 0.216	0 / 0 / 0	0 / 0 / 0
GUGGUUCCGGAUUCGC	0.985	0.320 / 0.345 / 0.135	0.0283 / 0.0318 / 0.0361	0 / 0 / 0
GUGGUUCCGGAUUCGG	0.631	0.453 / 0.453 / 0.162	0 / 0 / 0	0 / 0 / 0
GUGGUUCCGGAUUCGU	2.17	1.84 / 1.49 / 2.19	0.0283 / 0 / 0.469	0 / 0 / 0
GUGGUUCCGGAUUCUA	0.939	0.320 / 0.410 / 0.189	0 / 0.0318 / 0	0 / 0 / 0
GUGGUUCCGGAUUCUC	0.954	0.933 / 0.927 / 0.784	0.170 / 0 / 0.542	0.0559 / 0 / 0
GUGGUUCCGGAUUCUG	0.739	0.293 / 0.410 / 0.216	0 / 0.0318 / 0.0361	0 / 0 / 0
GUGGUUCCGGAUUCUU	0.785	0.480 / 0.798 / 0.649	0 / 0 / 0.506	0 / 0 / 0
GUGGUUCCGGCACCGC	0.0923	0.187 / 0.0431 / 0.162	0.198 / 0.223 / 0.144	0.186 / 0.184 / 0.292
GUGGUUCCGGGACCGC	0.185	0.293 / 0.259 / 0.270	0.170 / 0.414 / 0.144	0.317 / 0.314 / 0.268
GUGGUUCCGGUACCGC	0.0616	0.213 / 0.151 / 0.189	0.170 / 0.286 / 0.181	0.335 / 0.240 / 0.413
GUGGUUCCGUAAACAA	0.800	0.453 / 0.237 / 0.162	0 / 0 / 0.0361	0 / 0 / 0
GUGGUUCCGUAAACAC	0.923	0.320 / 0.280 / 0.243	0 / 0.0318 / 0	0 / 0 / 0
GUGGUUCCGUAAACAG	0.662	0.293 / 0.323 / 0.162	0 / 0.0318 / 0	0 / 0 / 0
GUGGUUCCGUAAACAU	0.800	0.853 / 0.798 / 0.703	0 / 0 / 0.542	0 / 0 / 0
GUGGUUCCGUAAACCA	1.11	0.640 / 0.453 / 0.567	0.312 / 0 / 0.0361	0.0559 / 0 / 0
GUGGUUCCGUAAACCC	1.25	0.533 / 0.367 / 0.297	0.0283 / 0.0318 / 0	0.168 / 0 / 0
GUGGUUCCGUAAACCG	0.585	0.400 / 0.194 / 0.216	0.0283 / 0.0636 / 0	0 / 0 / 0
GUGGUUCCGUAAACCU	0.846	0.506 / 0.323 / 0.189	0 / 0 / 0	0 / 0 / 0
GUGGUUCCGUAAACGA	0.785	0.400 / 0.302 / 0.0811	0 / 0 / 0	0 / 0 / 0
GUGGUUCCGUAAACGC	0.785	0.400 / 0.410 / 0.216	0 / 0 / 0	0.0186 / 0 / 0
GUGGUUCCGUAAACGG	0.769	0.267 / 0.367 / 0.189	0 / 0.0318 / 0	0 / 0 / 0
GUGGUUCCGUAAACGU	1.00	0.373 / 0.259 / 0.324	0 / 0 / 0.0361	0 / 0 / 0
GUGGUUCCGUAAACUA	1.29	0.880 / 0.755 / 0.270	0.0283 / 0.0318 / 0	0.130 / 0 / 0
GUGGUUCCGUAAACUC	0.893	0.373 / 0.388 / 0.270	0.0283 / 0 / 0	0 / 0 / 0
GUGGUUCCGUAAACUG	0.846	0.267 / 0.259 / 0.270	0 / 0 / 0	0 / 0 / 0
GUGGUUCCGUAAACUU	1.37	0.826 / 0.841 / 0.649	0 / 0 / 0	0.0559 / 0 / 0.0243
GUGGUUCCGUAACCAA	1.08	0.320 / 0.259 / 0.189	0 / 0 / 0	0 / 0 / 0
GUGGUUCCGUAACCAC	0.769	0.320 / 0.604 / 0.162	0.0283 / 0.0318 / 0.0361	0 / 0 / 0
GUGGUUCCGUAACCAG	0.970	0.240 / 0.323 / 0.189	0.0283 / 0 / 0.0722	0 / 0 / 0
GUGGUUCCGUAACCAU	0.800	1.01 / 0.712 / 1.11	0 / 0 / 0.433	0 / 0 / 0
GUGGUUCCGUAACCCA	0.939	0.506 / 0.323 / 0.351	0 / 0 / 0	0 / 0 / 0
GUGGUUCCGUAACCCC	0.754	0.426 / 0.539 / 0.108	0.0283 / 0 / 0	0 / 0 / 0
GUGGUUCCGUAACCCG	0.923	0.213 / 0.539 / 0.243	0.0283 / 0 / 0.0361	0 / 0 / 0
GUGGUUCCGUAACCCU	0.893	0.373 / 0.323 / 0.135	0.0283 / 0 / 0.0361	0 / 0 / 0
GUGGUUCCGUAACCGA	1.12	0.293 / 0.216 / 0.216	0 / 0 / 0.0361	0.0373 / 0.0184 / 0
GUGGUUCCGUAACCGC	0.954	0.986 / 0.712 / 1.22	1.76 / 1.85 / 1.26	1.44 / 1.14 / 0.973
GUGGUUCCGUAACCGG	0.923	0.320 / 0.367 / 0.324	0 / 0.0636 / 0	0 / 0 / 0
GUGGUUCCGUAACCGU	0.877	0.267 / 0.410 / 0.432	0 / 0.0318 / 0	0 / 0 / 0
GUGGUUCCGUAACCUA	0.954	0.240 / 0.518 / 0.135	0.0283 / 0 / 0	0 / 0 / 0
GUGGUUCCGUAACCUC	0.585	0.400 / 0.129 / 0.324	0 / 0 / 0	0 / 0.0369 / 0.0243
GUGGUUCCGUAACCUG	0.939	0.533 / 0.410 / 0.162	0 / 0 / 0	0 / 0 / 0
GUGGUUCCGUAACCUU	0.646	0.426 / 0.173 / 0.270	0.0283 / 0 / 0	0 / 0 / 0
GUGGUUCCGUAAGCAA	0.677	0.267 / 0.259 / 0.243	0.0283 / 0 / 0	0 / 0 / 0

Extract of 3 entries:

sequence,pool,inoculated region,leaf margin,systemic leaves
GUGGUUCCGGAUGCGG,2.26,1.09 / 1.08 / 0.919,0.538 / 0 / 0.0361,0.0186 / 0 / 0
GUGGUUCCGGAUGCCU,0.785,0.320 / 0.431 / 0.189,0 / 0.0636 / 0.0361,0 / 0 / 0
GUGGUUCCGUAACCGU,0.877,0.267 / 0.410 / 0.432,0 / 0.0318 / 0,0 / 0 / 0